{"source": "patent US10221163B2", "about": "(priority 2015, dated 2019)", "system": "Escherichia coli expressing NDM-1 (CLB30005, CLB30016)", "conditions": "NDM-1 strain, with imipenem 1 μg/ml, 95% inhibition of growth"}
{"compound": "NC[C@H](O)CNS(=O)(=O)c1ccc(-c2ccnc(N)c2)c(-c2nn[nH]n2)c1S(N)(=O)=O", "values": [{"measurement": "Escherichia coli MITC95", "result": 0.1953, "unit": "µM"}]}
